Anti-infective test results gathered from many reports (values: NIAID ChemDB through PubChem).

Common to all: tests on isolated targets; agent: HIV-1; target: Reverse transcriptase

Fold resistance has wild type as its base. ICn is the concentration giving n% inhibition. Lines come from different laboratories, so protocols vary. An empty or dashed field is not shown.

smiles	read by	strain or isolate	endpoint	mutations	value
CC(C)c1nnc2c3ccccc3c(N3CCc4ccc(NS(C)(=O)=O)cc4C3)nn12	RT activity / fluorescence	IIIB	IC90		2.47 µM
CCN1c2ncc(CCOc3ccc(-c4cc[n+]([O-])cc4)cc3)cc2C(=O)N(C)c2cccnc21	nucleotide incorporation / radiometric	IIIB	IC50		<0.05 µM
COC(=O)NCCCCNc1nc(Cc2ccccc2)c(C)c(=O)[nH]1			Ki		23 µM
c1ccc(-c2nnc3c4ccccc4c(N4CCc5ccccc5C4)nn23)cc1	RT activity / fluorescence	98US_MSC5016	IC90		>100 µM
CN(C)CC(=O)NC(C)(C)C#Cc1ccc(NC(=O)CSc2nnnn2-c2ccc(C3CC3)cc2Cl)c(Cl)c1F	PicoGreen / fluorescence	WT	IC50		<1 µM
c1ccc2c(c1)CCN(c1nn3c(-c4ccsc4)nnc3c3ccccc13)C2	RT activity / fluorescence	IIIB	IC90		>100 µM
O=C(CSc1nnnn1-c1cc(C(F)(F)F)ccc1Cl)Nc1ccc(-c2ccc(OCCN3CCCCC3)cc2)c(F)c1Cl	PicoGreen / fluorescence	WT	IC50		<1 µM
CCN1c2ncc(CCOc3ccc(C(=O)N=c4ccn(O)cc4)cc3C)cc2C(=O)N(C)c2cccnc21	nucleotide incorporation / radiometric	IIIB	fold resistance	RT-K103N Y181C	1
Oc1ccc2c(c1)CN(c1nn3c(C4CC4)nnc3c3ccccc13)CC2	RT activity / fluorescence	98US_MSC5016	IC90		3.65 µM
CC(C)(C)c1ccc(-n2nnnc2SCC(=O)Nc2ccc(OCC(=O)NCCc3ccc(O)c(O)c3)cc2Cl)c(Cl)c1	PicoGreen / fluorescence	WT	IC50		<1 µM
COc1cc2c(cc1OC)CN(c1nn3c(C)nnc3c3ccccc13)CC2	RT activity / fluorescence	98US_MSC5016	IC90		0.86 µM
CCN1c2ncc(CCOc3ccc(S(=O)(=O)c4ccc(C(=O)O)cc4)cc3C)cc2C(=O)N(C)c2cccnc21	nucleotide incorporation / radiometric	IIIB	IC50		<0.05 µM
c1coc(-c2nnc3c4ccccc4c(N4CCc5ccccc5C4)nn23)c1	RT activity / fluorescence	KER2008	IC90		0.92 µM
COC(=O)c1ccc(-c2ccc(NC(=O)CSc3nnnn3-c3ccc(C(C)(C)C)cc3Cl)c(Cl)c2)cc1	PicoGreen / fluorescence		IC50	RT-K103 Y181C	<1 µM
CCN1c2ncc(CCOc3ccc(-c4ccc[n+]([O-])c4)cc3C)cc2C(=O)N(C)c2cccnc21	nucleotide incorporation / radiometric	IIIB	fold resistance	RT-K103N Y181C	1
CCc1cc(NCc2nc3c(C)ccc(C)c3o2)c(=O)[nH]c1C	nucleotide incorporation		fold resistance	RT-Y188F	1
NCCCCNc1nc(Cc2ccccc2)cc(=O)[nH]1			fold resistance	RT-L100I	1.36
CSCCC(NC(=O)c1ccc(NC(=O)CSc2nnnn2-c2ccc(C(C)(C)C)cc2Cl)c(Cl)c1)C(=O)O	PicoGreen / fluorescence		IC50	RT-K103 Y181C	<1 µM
CCN1c2ncc(CCOc3ccc(-c4ccnc(C)c4)cc3C)cc2C(=O)N(C)c2cccnc21	nucleotide incorporation / radiometric	IIIB	IC50	RT-K103N Y181C	<0.05 µM
FC(F)(F)c1ccc2c(c1)CN(c1nn3c(C4CC4)nnc3c3ccccc13)CC2	RT activity / fluorescence	98US_MSC5016	IC50		2.23 µM
O=C(CSc1nnnn1-c1ccc(C2CC2)cc1Cl)Nc1ccc(C#CCCN2CCC(O)CC2)cc1Cl	PicoGreen / fluorescence		IC50	RT-K103 Y181C	<1 µM
CCN1c2ncc(CCOc3ccc(-c4cc(C(=O)O)c(C)o4)cc3)cc2C(=O)N(C)c2cccnc21	nucleotide incorporation / radiometric	IIIB	IC50		<0.05 µM
CC(C)(C#Cc1ccc(NC(=O)CSc2nnnn2-c2ccc(C3CC3)cc2Cl)c(Cl)c1)NC(=O)CC(=O)O	PicoGreen / fluorescence	WT	IC50		<1 µM
CCN1c2ncc(CCOc3ccc(-c4cc(C(=O)O)ccc4F)cc3C)cc2C(=O)N(C)c2cccnc21	nucleotide incorporation / radiometric	IIIB	IC50		<0.05 µM
CCS(=O)(=O)NC(=O)C(C)(C)C#Cc1ccc(NC(=O)CSc2nnnn2-c2ccc(C3CC3)cc2Cl)c(Cl)c1	PicoGreen / fluorescence	WT	IC50		<1 µM
Cc1c(Cc2ccccc2)nc(SCCCCO)[nH]c1=O			Ki	RT-Y188L	58 µM
CCN(CC)CCOc1ccc(-c2ccc(NC(=O)CSc3nnnn3-c3ccc(C(C)(C)C)cc3Cl)c(Cl)c2)cc1	PicoGreen / fluorescence	WT	IC50		<1 µM
COc1ccc2c(c1)CCN(c1nn3c(C)nnc3c3ccccc13)C2	RT activity / fluorescence	KER2008	IC90		3.68 µM